A mixed list of measured activities; the numbers were collected in NIAID ChemDB.

Shared fields: target-level tests

Lines come from different laboratories, so protocols vary. a–b is a range or a potency band. Percent inhibition refers to the dose given; in toxicity tests it is the harm to the cells. ICn: concentration for n% inhibition.

{"SMILES": "CS(=O)(=O)c1cccc(Oc2ccc(-c3cnc4c(-c5nn[nH]n5)cnn4c3C3CCCCC3)cc2)c1", "organism": "Hepatitis C virus", "protein": "RNA-dependent RNA polymerase", "endpoint": "IC50", "value": "1–10 µM"}
{"SMILES": "CCOC(=O)C(F)(F)C(=O)[C@H](CC)NC(=O)[C@@H]1C[C@@H](OCc2ccccc2)CN1C(=O)[C@@H](NC(=O)[C@@H](NC(=O)c1cnccn1)C(C)C)C(C)C", "organism": "Hepatitis C virus", "protein": "NS3 protease", "endpoint": "Ki", "value": ">100 µM"}
{"SMILES": "CC(C)N(C(=O)c1ccc(Cl)nc1Cl)c1cc(-c2ccccc2)sc1C(=O)O", "organism": "Hepatitis C virus", "protein": "NS3 ATPase", "endpoint": "IC50", "value": "5–20 µM"}
{"SMILES": "COc1ccc(-c2ccc(F)c(F)c2)c(-c2ccc3cc(-c4nc5cc(C(=O)O)ccc5n4C4CCCCC4)ccc3n2)c1", "dose": "100 µM", "organism": "Hepatitis C virus", "protein": "NS5B polymerase", "endpoint": "inhibition", "value": "101%"}
{"SMILES": "CC(C)=CCc1c(-c2ccc(OCc3ccccc3)cc2)nc2cc(C(=O)O)[nH]n2c1=O", "organism": "Hepatitis C virus", "protein": "RNA-dependent RNA polymerase", "endpoint": "IC50", "value": "1–10 µM"}
{"SMILES": "CC[C@H](NC(=O)[C@H](CC(C)C)NC(=O)[C@@H](NC(=O)[C@@H](NC(=O)[C@H](CC(=O)O)CC(=O)[C@H](CCC(=O)O)NC(C)=O)C(C)C)C(C)C)C(=O)C(=O)NC(C)COC", "organism": "Hepatitis C virus", "protein": "NS3 protease", "endpoint": "Ki", "value": "<1 µM"}
{"SMILES": "O=C(NCCS(=O)(=O)O)c1ccc2c(c1)nc(-c1ccc3nc(-c4ccccc4)cnc3c1)n2C1CCCCC1", "dose": "100 µM", "organism": "Hepatitis C virus", "protein": "NS5B polymerase", "endpoint": "inhibition", "value": "93.58%"}
{"SMILES": "CC(C)N(C(=O)c1ccc(Cl)cc1Cl)c1cc(-c2ccc(C(=O)O)cc2)sc1C(=O)O", "organism": "Hepatitis C virus", "protein": "NS3 ATPase", "endpoint": "IC50", "value": "<5 µM"}
{"SMILES": "O=C(NCc1csc2ccccc12)Nc1ccsc1-c1nc(C(=O)O)c(O)c(=O)[nH]1", "organism": "Hepatitis C virus", "protein": "HCV polymerase", "endpoint": "IC50", "value": "<25 µM"}
{"SMILES": "COc1nc(Nc2ccc3[nH]ncc3c2)nc(N2CCN(C(=O)c3cccnc3)CC2)n1", "dose": "0.1 µg/mL", "organism": "Hepatitis B virus", "protein": "DNA polymerase", "endpoint": "inhibition", "value": "35%"}
{"SMILES": "CNC(=O)c1c(-c2ccc(F)cc2)oc2cc(C(C)O)c(OC(C)C)cc12", "organism": "Hepatitis C virus", "protein": "Nonstructural protein 5B", "endpoint": "IC50", "value": "≤0.5 µM"}
{"SMILES": "COc1nc(Nc2ccc3cn[nH]c3c2)nc(NN2CCOCC2)n1", "dose": "1 µg/mL", "organism": "Hepatitis B virus", "protein": "DNA polymerase", "endpoint": "inhibition", "value": "72%"}
{"SMILES": "CNC(=O)c1c(-c2ccc(F)cc2)oc2cc(-c3c(C)noc3C)c(OCCCO)cc12", "organism": "Hepatitis C virus", "protein": "Nonstructural protein 5B", "endpoint": "IC50", "value": "≤0.5 µM"}
{"SMILES": "C[C@H](NC(=O)Nc1cccc(-c2nc(C(=O)O)c(O)c(=O)[nH]2)c1)c1ccccc1", "organism": "Hepatitis C virus", "protein": "HCV polymerase", "endpoint": "IC50", "value": "<100 µM"}
{"SMILES": "CNC(=O)c1c(-c2ccc(F)cc2)oc2cc(C3CCCN3C(C)=O)c(OC)cc12", "organism": "Hepatitis C virus", "protein": "Nonstructural protein 5B", "endpoint": "IC50", "value": "≤0.5 µM"}
{"SMILES": "c1ccc(Oc2ccc(-c3cnc4c(-c5nn[nH]n5)cnn4c3C3CCCCC3)cc2)cc1", "organism": "Hepatitis C virus", "protein": "RNA-dependent RNA polymerase", "endpoint": "IC50", "value": "<1 µM"}
{"SMILES": "CC[C@@H](C=O)NC(=O)[C@@H]1C[C@@H](OC(=O)Nc2ccccc2OC)CN1C(=O)[C@@H](NC(=O)[C@@H](NC(=O)c1cnccn1)C(C)C)C(C)C", "organism": "Hepatitis C virus", "protein": "NS3 protease", "endpoint": "Ki", "value": "1–100 µM"}
{"SMILES": "O=C(Nc1ccsc1-c1nc(C(=O)OCCN2CCOCC2)c(O)c(=O)[nH]1)c1ccccc1", "organism": "Hepatitis C virus", "protein": "HCV polymerase", "endpoint": "IC50", "value": "<50 µM"}
{"SMILES": "CCCC(=O)N(Cc1ccc(C)cc1)c1cc(-c2ccccc2)sc1C(=O)O", "organism": "Hepatitis C virus", "protein": "NS3 ATPase", "endpoint": "IC50", "value": "5–20 µM"}
{"SMILES": "O=C(O)c1ccc2c(c1)nc(-c1ccc3nc(-c4ccc5c(c4)CCO5)ccc3c1)n2C1CCCCC1", "dose": "33 µM", "organism": "Hepatitis C virus", "protein": "NS5B polymerase", "endpoint": "inhibition", "value": "95.8%"}
{"SMILES": "O=C(Cn1nc(-c2ccccc2)cc1-c1ccccc1)Nc1ccsc1-c1nc(C(=O)O)c(O)c(=O)[nH]1", "organism": "Hepatitis C virus", "protein": "HCV polymerase", "endpoint": "IC50", "value": "<25 µM"}
{"SMILES": "CC(C)N(C(=O)C1CC[C@@H](C)C[C@@H]1O)c1cc(-c2ccccc2)sc1C(=O)O", "organism": "Hepatitis C virus", "protein": "NS3 ATPase", "endpoint": "IC50", "value": "<5 µM"}
{"SMILES": "O=C(O)c1ccc2c(c1)nc(-c1ccc3nc(-c4cccc(OCCCN5CCCC5)c4)ccc3c1)n2C1CCCCC1", "dose": "33 µM", "organism": "Hepatitis C virus", "protein": "NS5B polymerase", "endpoint": "inhibition", "value": "93.43%"}
{"SMILES": "COc1nc(Nc2ccc3cn[nH]c3c2)nc(N2CCN(C(=O)c3cccnc3)CC2)n1", "organism": "Hepatitis B virus", "protein": "DNA polymerase", "endpoint": "IC50", "value": ">1 µg/mL"}
{"SMILES": "O=C(O)c1nc(-c2cscc2NS(=O)(=O)c2ccc3ccccc3c2)[nH]c(=O)c1O", "organism": "Hepatitis C virus", "protein": "HCV polymerase", "endpoint": "IC50", "value": "<25 µM"}
{"SMILES": "CCOc1ccc(-c2ccc(OC)cc2-c2ccc3cc(-c4nc5cc(C(=O)O)ccc5n4C4CCCCC4)ccc3n2)cc1", "dose": "100 µM", "organism": "Hepatitis C virus", "protein": "NS5B polymerase", "endpoint": "inhibition", "value": "99.69%"}
{"SMILES": "COc1cccc(-c2cc(-c3ccc(Oc4ccccc4)cc3)n3nc(C(=O)O)cc3n2)c1", "organism": "Hepatitis C virus", "protein": "RNA-dependent RNA polymerase", "endpoint": "IC50", "value": ">10 µM"}
{"SMILES": "CCN(c1cc2oc(-c3ccc(F)cc3)c(C(=O)NC)c2cc1OC)S(C)(=O)=O", "organism": "Hepatitis C virus", "protein": "Nonstructural protein 5B", "endpoint": "IC50", "value": "≤0.5 µM"}
{"SMILES": "O=C(O)c1cc2nc(-c3cccc(Oc4ccccc4)c3)cc(NCc3ccc(Cl)cc3)n2n1", "organism": "Hepatitis C virus", "protein": "RNA-dependent RNA polymerase", "endpoint": "IC50", "value": "1–10 µM"}
{"SMILES": "O=C(O)c1ccc2c(c1)nc(-c1ccc3nc(-c4cnn(-c5ccccc5)c4)ccc3c1)n2C1CCCCC1", "dose": "100 µM", "organism": "Hepatitis C virus", "protein": "NS5B polymerase", "endpoint": "inhibition", "value": "101%"}
{"SMILES": "COc1ccc(S(=O)(=O)Nc2ccccc2-c2nc(C(=O)O)c(O)c(=O)[nH]2)cc1C(=O)O", "organism": "Hepatitis C virus", "protein": "HCV polymerase", "endpoint": "IC50", "value": "<100 µM"}
{"SMILES": "CC[C@@H](C=O)NC(=O)[C@@H]1C[C@@H](OCc2ccccc2)CN1C(=O)[C@@H](NC(=O)Nc1ccccc1)C(C)C", "organism": "Hepatitis C virus", "protein": "NS3 protease", "endpoint": "Ki", "value": "1–100 µM"}
{"SMILES": "O=C(N[C@@H](Cc1ccc(O)cc1)C(=O)O)c1cc2nc(-c3cccc(F)c3)c(C3CCCCC3)c(=O)n2[nH]1", "organism": "Hepatitis C virus", "protein": "RNA-dependent RNA polymerase", "endpoint": "IC50", "value": "<1 µM"}
{"SMILES": "CC[C@@H](C=O)NC(=O)[C@@H]1C[C@@H](OC(=O)Nc2cccc(Oc3ccccc3)c2)CN1C(=O)[C@@H](NC(=O)[C@@H](NC(=O)c1cnccn1)C(C)C)C(C)C", "organism": "Hepatitis C virus", "protein": "NS3 protease", "endpoint": "Ki", "value": "1–100 µM"}
{"SMILES": "N#Cc1ccc(-c2cc(NS(=O)(=O)c3ccc(Cl)cc3)c(C(=O)O)s2)cc1", "organism": "Hepatitis C virus", "protein": "NS3 ATPase", "endpoint": "IC50", "value": "<5 µM"}
{"SMILES": "COc1nc(Nc2ccc3[nH]ncc3c2)nc(NN2CCN(C)CC2)n1", "dose": "0.01 µg/mL", "organism": "Hepatitis B virus", "protein": "DNA polymerase", "endpoint": "inhibition", "value": "6%"}
{"SMILES": "Cc1ccc(C(=O)N(C)c2cc(-c3cccc(N)c3)sc2C(=O)O)cc1", "organism": "Hepatitis C virus", "protein": "NS3 ATPase", "endpoint": "IC50", "value": "5–20 µM"}
{"SMILES": "COc1nc(Nc2ccc3[nH]ncc3c2)nc(N2CCOCC2)n1", "dose": "10 µg/mL", "organism": "Hepatitis C virus", "protein": "Nonstructural protein 5B", "endpoint": "inhibition", "value": "72%"}
{"SMILES": "CCOC(=O)c1cnn2c(C3CCCCC3)c(-c3ccc(OCc4ccccc4)cc3)cnc12", "organism": "Hepatitis C virus", "protein": "RNA-dependent RNA polymerase", "endpoint": "IC50", "value": ">10 µM"}
{"SMILES": "O=C(Nc1cscc1-c1nc(C(=O)O)c(O)c(=O)[nH]1)NS(=O)(=O)c1ccccc1C(F)(F)F", "organism": "Hepatitis C virus", "protein": "HCV polymerase", "endpoint": "IC50", "value": "<25 µM"}
{"SMILES": "O=C(O)c1ccc2c(c1)nc(-c1ccc3nc(-c4ccc(-n5ccnc5)cc4)ccc3c1)n2C1CCCCC1", "dose": "33 µM", "organism": "Hepatitis C virus", "protein": "NS5B polymerase", "endpoint": "inhibition", "value": "99.22%"}
{"SMILES": "O=C(O)c1c[nH]n2c(=O)c(CCCc3ccccc3)c(-c3ccc(OCc4ccccc4)cc3)nc12", "organism": "Hepatitis C virus", "protein": "RNA-dependent RNA polymerase", "endpoint": "IC50", "value": "1–10 µM"}
{"SMILES": "O=C(O)c1sc(-c2ccccc2)cc1NS(=O)(=O)c1ccc(F)c(C(F)(F)F)c1", "organism": "Hepatitis C virus", "protein": "NS3 ATPase", "endpoint": "IC50", "value": "5–20 µM"}

For reference, 6 entries again:

{"SMILES": "COc1nc(Nc2ccc3[nH]ncc3c2)nc(NN2CCN(C)CC2)n1", "dose": "0.01 µg/mL", "organism": "Hepatitis B virus", "protein": "DNA polymerase", "endpoint": "inhibition", "value": "6%"}
{"SMILES": "COc1nc(Nc2ccc3cn[nH]c3c2)nc(NN2CCOCC2)n1", "dose": "1 µg/mL", "organism": "Hepatitis B virus", "protein": "DNA polymerase", "endpoint": "inhibition", "value": "72%"}
{"SMILES": "O=C(N[C@@H](Cc1ccc(O)cc1)C(=O)O)c1cc2nc(-c3cccc(F)c3)c(C3CCCCC3)c(=O)n2[nH]1", "organism": "Hepatitis C virus", "protein": "RNA-dependent RNA polymerase", "endpoint": "IC50", "value": "<1 µM"}
{"SMILES": "CCCC(=O)N(Cc1ccc(C)cc1)c1cc(-c2ccccc2)sc1C(=O)O", "organism": "Hepatitis C virus", "protein": "NS3 ATPase", "endpoint": "IC50", "value": "5–20 µM"}
{"SMILES": "CCOc1ccc(-c2ccc(OC)cc2-c2ccc3cc(-c4nc5cc(C(=O)O)ccc5n4C4CCCCC4)ccc3n2)cc1", "dose": "100 µM", "organism": "Hepatitis C virus", "protein": "NS5B polymerase", "endpoint": "inhibition", "value": "99.69%"}
{"SMILES": "CC[C@@H](C=O)NC(=O)[C@@H]1C[C@@H](OC(=O)Nc2ccccc2OC)CN1C(=O)[C@@H](NC(=O)[C@@H](NC(=O)c1cnccn1)C(C)C)C(C)C", "organism": "Hepatitis C virus", "protein": "NS3 protease", "endpoint": "Ki", "value": "1–100 µM"}